Experimental data published in ChEMBL document CHEMBL5614387, “Discovery of 2,4,6-trisubstituted pyrimidine derivatives as novel potent HIV-1 NNRTIs by exploiting the tolerant region II of the NNIBP” (Eur J Med Chem, 2024).

Biological target: Human immunodeficiency virus type 1 reverse transcriptase (Human immunodeficiency virus 1, UniProt Q72547)
Experiment: Inhibition of wild-type HIV-1 reverse transcriptase incubated for 1 hr in presence of biotin-dUTP by ELISA

## Cc1cc(C#N)cc(C)c1Oc1nc(Nc2ccc(C#N)cc2)nc(N)c1Br [ETRAVIRINE]
  IC50: 29 nM
